Only a part of the results on these compounds is given; other tests are left out.
Biological target: human CCR5 (Homo sapiens, UniProt P51681)
Test: gp120-sCD4-CCR5 binding assay (FACS)
Conditions: read-out: FACS IC50; CHO-K1 cell line stably transfected with the human CCR5 gene; biotinylated gp120 (JRFL strain) and soluble recombinant CD4; 1% DMSO
Protocol: gp120-sCD4-CCR5 Binding Assay:
The gp120-sCD4-CCR5 binding assay was carried out as previously described (Dragic, T., A. Trkola, et al. (2000). “A binding pocket for a small molecule inhibitor of HIV-1 entry within the transmembrane helices of CCR5.” Proc Natl Acad Sci USA 97: 5639-44.) with the following minor modifications: the cell line used for these experiments was a CHO-K1 cell line stably transfected with the human CCR5 gene; the gp120-CD4 complex comprised recombinant biotinylated gp120 (JRFL strain) and soluble recombinant CD4; and all compounds were tested in a final concentration of 1% DMSO.
All reagents and cell lines were obtained from Progenics Pharmaceuticals Inc, Tarrytown, N.Y., USA, and are commercially available or can be prepared according to the methods described and the information given in the papers above.

Sequences of proteins named here, by UniProt entry; tags and fusion partners are left off.
UniProt P51681, whole entry: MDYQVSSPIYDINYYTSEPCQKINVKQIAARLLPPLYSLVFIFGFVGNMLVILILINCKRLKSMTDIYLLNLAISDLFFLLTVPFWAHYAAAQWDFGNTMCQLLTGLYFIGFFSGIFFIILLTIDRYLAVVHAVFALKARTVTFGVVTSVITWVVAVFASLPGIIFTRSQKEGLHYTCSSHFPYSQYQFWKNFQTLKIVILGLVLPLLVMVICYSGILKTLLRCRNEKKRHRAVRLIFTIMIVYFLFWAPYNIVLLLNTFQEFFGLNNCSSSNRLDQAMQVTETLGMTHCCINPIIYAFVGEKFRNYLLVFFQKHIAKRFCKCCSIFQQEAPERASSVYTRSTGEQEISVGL

CNC(=O)N(c1ccccc1)C1CCN(Cc2nc(-c3ccc(C)cc3)[nH]c2C)CC1
IC50: 180 nM
